Experimental data as given in US20250154231A1.

Biological target: SARS-CoV-2 spike (S) protein, Omicron BA.2 + R493Q (SARS-CoV-2) (UniProt P0DTC2)
Assay: cell-based or functional assay

Substance | pseudovirus neutralisation IC50 [ng/mL]
Omi-03 (antibody) | 2
Omi-12 (antibody) | 1
Omi-18 (antibody) | 4
Omi-29 (antibody) | 42
Omi-42 (antibody) | 6

Biological target: SARS-CoV-2 spike (S) protein, Omicron BA.2.75 (SARS-CoV-2) (UniProt P0DTC2)
Assay: cell-based or functional assay

Substance | fold reduction of neutralising activity compared to BA.2 [fold]
AZD7442 | 2
